Anti-infective test results gathered from many reports (values: NIAID ChemDB through PubChem).

Common to all: enzyme or target tests; agent: HIV-1; protein: Protease

An empty or dashed field is not shown. ICn is the concentration giving n% inhibition. Conditions beyond the fields shown may differ between rows.

smiles | endpoint | read by | value
CC(=O)Nc1ccc(S(=O)(=O)N(CC(C)C)C[C@@H](O)[C@H](CCc2ccccc2)NC(=O)Cc2c[nH]c3ccccc23)cc1 | IC50 | - | 0.008 µM
C[N+](Cc1ccccc1)(C[C@H](O)[C@H](Cc1ccccc1)NC(=O)OC1CCOCC1)/N=C(\[O-])c1ccccc1 | IC50 | HPLC | 3 µM
CC(C)c1nc(CN(C)C(=O)N[C@@H](C(=O)NN(Cc2cccc(O)c2)C[C@H](O)[C@H](Cc2ccccc2)NC(=O)OCc2cncs2)C(C)C)cs1 | IC50 | substrate cleavage | 0.0005 µM
COc1ccc(CSC[C@@H](NC(C)=O)C(=O)N[C@@H](CCc2ccccc2)[C@H](O)C(=O)N2CSC(C)(C)[C@H]2C(=O)NCc2ccccc2C)cc1 | IC50 | - | 0.00018 µM
CC(C)(C)OC(=O)N1C2C3(CO)C(c4ccccc4)C4(CO)C1C1(CO)C(c5ccccc5)C2(CO)C3N(C(=O)OC(C)(C)C)C41 | Ki | - | 0.01 µM
CC(C)=CCc1ccc2[nH]cc(C3=C(O)C(=O)C(c4c[nH]c5ccccc45)=C(O)C3=O)c2c1 | IC50 | - | 0.37 µM
Cc1cn([C@H]2C[C@H](N=[N+]=[N-])[C@@H](COC(=O)CCCCC(=O)O[C@H]3CC[C@]4(C)[C@H]5CC=C6[C@@H]7CC(C)(C)CC[C@]7(C(=O)O)CC[C@@]6(C)[C@]5(C)CC[C@H]4C3(C)C)O2)c(=O)[nH]c1=O | IC50 | HPLC | 3.2 µM
O=C(N[C@@H](CCc1ccccc1)[C@@H](O)C[C@]1(Cc2ccccc2)NC=C([C@H]2c3ccccc3C[C@H]2O)C1=O)O[C@H]1CCOC1 | IC50 | - | 0.002 µM
CC(C)CN(C[C@@H](O)[C@H](Cc1ccccc1)NC(=O)CN(CC(N)=O)[C@H]1CCOC1)S(=O)(=O)c1ccc2c(c1)OCO2 | IC50 | substrate cleavage / FRET | 0.0099 µM
C=C(C)C(O)Cc1c(O)c(CC=C(C)C)c(O)c2c(=O)c(-c3ccc(O)cc3O)coc12 | IC50 | HPLC | 2.5 µM
CC(C)(C)OC(=O)N[C@@H](Cc1ccccc1)[C@@H](O)C[N+](C)(C)/N=C(\[O-])c1ccccc1 | IC50 | HPLC | 14 µM
CC(C)=CCc1c2c(c3occ(-c4ccc(O)cc4O)c(=O)c3c1O)C[C@H](O)C(C)(C)O2 | IC50 | HPLC | 5 µM
CC(C)[C@H](NC(=O)[C@@H]1CCCN1C(=O)[C@H](O)[C@H](Cc1ccccc1)NC(=O)OC(C)(C)C)C(=O)OC1CCCCC1 | IC50 | - | >1000 µM
CC(C)=CCc1c(O)c(CC=C(C)C)c2occ(-c3ccc(O)cc3O)c(=O)c2c1O | IC50 | HPLC | 4 µM
CC(C)(C)OC(=O)[C@@H]1CCCN1C(=O)[C@@H](O)[C@H](Cc1ccccc1)NC(=O)[C@H](CC(N)=O)NC(=O)OCc1ccccc1 | IC50 | - | <5 µM
CC(C)=CCc1ccc2c(C3=C(O)C(=O)C(c4c[nH]c5ccccc45)=C(O)C3=O)c[nH]c2c1 | IC50 | - | >0.5 µM
CC(C)c1nc(CN(C)C(=O)N[C@@H](C(=O)NN(Cc2ccc(O)cc2)C[C@H](O)[C@H](Cc2ccccc2)NC(=O)OCc2cncs2)C(C)C)cs1 | IC50 | substrate cleavage | <0.0005 µM
CC(C)(C)NC(=O)[C@H]1N(C(=O)[C@@H](O)[C@H](Cc2ccccc2)NC(=O)[C@H](CC(N)=O)NC(=O)C/C=C/c2ccccc2)CSC1(C)C | IC50 | - | <0.05 µM
COC(=O)[C@]12CCC(C)(C)C[C@H]1C1=CC[C@@H]3[C@@]4(C)CC[C@H](O)C(C)(C)[C@@H]4CC[C@@]3(C)[C@]1(C)CC2 | IC50 | HPLC | 20 µM
CC(C)(C)OC(=O)N[C@@H](Cc1ccccc1)[C@@H](O)C[N+](C)(Cc1ccccc1)/N=C(\[O-])C1CCCC1 | IC50 | HPLC | 0.85 µM
COC(=O)[C@]12CCC(C)(C)C[C@H]1C1=CC[C@@H]3[C@@]4(C)CC/C(=N\OC(=O)CCCCC(=O)OC[C@H]5O[C@@H](n6cc(C)c(=O)[nH]c6=O)C[C@@H]5N=[N+]=[N-])C(C)(C)[C@@H]4CC[C@@]3(C)[C@]1(C)CC2 | IC50 | HPLC | 16 µM
CC(=O)Nc1ccc(S(=O)(=O)N(CC(C)C)C[C@@H](O)[C@H](CCc2ccccc2)NC(=O)CN2C(=O)c3ccccc3C2=O)cc1 | IC50 | - | 0.02 µM
CC(C)C[C@H](NC(=O)OC(C)(C)C)[C@@H](O)C[N+](C)(Cc1ccccc1)/N=C(\[O-])c1ccccc1 | IC50 | HPLC | 5 µM
CC(=O)Nc1ccc(S(=O)(=O)N(CC(C)C)C[C@@H](O)[C@H](CCc2ccccc2)NC(=O)CN2C(=O)c3ccccc3S2(=O)=O)cc1 | IC50 | - | 0.02 µM
Cn1c2c(O)cccc2c(=O)c2c(O)cc3c(c21)C=CC(C)(C)O3 | IC50 | HPLC | 93.1 µM
CC(C)(C)OC(=O)NN(Cc1ccncc1)C[C@H](O)[C@H](Cc1ccccc1)NC(=O)OCc1ccccc1 | IC50 | substrate cleavage | 0.104 µM
COC(=O)[C@]12CCC(C)(C)C[C@H]1C1=CC[C@@H]3[C@@]4(C)CC[C@H](OC(=O)CCCCC(=O)Oc5c(OC)ccc6c5[C@@]57CCC(C)[C@@H](C6)C5=C(OC)C(OC(C)=O)C(OC(C)=O)C7)C(C)(C)[C@@H]4CC[C@@]3(C)[C@]1(C)CC2 | IC50 | HPLC | >100 µM
O=C(Oc1ccccc1)N1C2C3C4N(C(=O)Oc5ccccc5)C5C(C1C5(CO)[C@H]3c1ccccc1)[C@@H](c1ccccc1)C24CO | Ki | - | 0.125 µM
CCC(C)[C@H](NC(=O)C1CCCN1)C(=O)N[C@@H](Cc1ccccc1)[C@H](O)CN(CC(C)C)S(=O)(=O)c1ccc2c(c1)OCO2 | IC50 | - | 0.003 µM
CC(C)(C)OC(=O)NN(CC1CCOCC1)C[C@H](O)[C@H](Cc1ccccc1)NC(=O)OCc1ccccc1 | IC50 | substrate cleavage | 0.036 µM
CC1(C)CC[C@]2(C(=O)O)CC[C@]3(C)C(=CCC4[C@@]5(C)CC[C@H](NC(=O)CCCCC(=O)O)C(C)(C)C5CC[C@]43C)C2C1 | IC50 | HPLC | 3 µM
CC(C)c1nc(CN(C)C(=O)N[C@@H](C(=O)NN(CC2C=COC=C2)C[C@H](O)[C@H](Cc2ccccc2)NC(=O)OCc2cncs2)C(C)C)cs1 | IC50 | substrate cleavage | 0.0032 µM
CC(C)(C)NC(=O)[C@@H]1CCCN1C(=O)[C@@H](O)[C@H](Cc1ccccc1)NC(=O)[C@H](CC(N)=O)NC(=O)c1nccc2ccccc12 | IC50 | - | >0.05 µM
CN=S(=O)(C[C@@H](Cc1ccccc1)C(=O)N[C@H]1c2ccccc2C[C@H]1O)C[C@@H](Cc1ccccc1)C(=O)N[C@H]1c2ccccc2C[C@H]1O | IC50 | - | 0.46 µM
CC(C)(C)NC(=O)[C@@H]1CCCN1C(=O)[C@@H](O)[C@H](Cc1ccccc1)NC(=O)[C@H](CC(=O)NN)NC(=O)OCc1cccc2ccccc12 | IC50 | - | <0.05 µM
CC1(C)C=Cc2c(cc(O)c3c(=O)c(-c4ccc(O)cc4)coc23)O1 | IC50 | HPLC | 18.2 µM

5 of the rows above, restated:

smiles | endpoint | read by | value
CC(C)(C)NC(=O)[C@@H]1CCCN1C(=O)[C@@H](O)[C@H](Cc1ccccc1)NC(=O)[C@H](CC(=O)NN)NC(=O)OCc1cccc2ccccc12 | IC50 | - | <0.05 µM
COC(=O)[C@]12CCC(C)(C)C[C@H]1C1=CC[C@@H]3[C@@]4(C)CC[C@H](OC(=O)CCCCC(=O)Oc5c(OC)ccc6c5[C@@]57CCC(C)[C@@H](C6)C5=C(OC)C(OC(C)=O)C(OC(C)=O)C7)C(C)(C)[C@@H]4CC[C@@]3(C)[C@]1(C)CC2 | IC50 | HPLC | >100 µM
C=C(C)C(O)Cc1c(O)c(CC=C(C)C)c(O)c2c(=O)c(-c3ccc(O)cc3O)coc12 | IC50 | HPLC | 2.5 µM
CC(C)(C)OC(=O)NN(Cc1ccncc1)C[C@H](O)[C@H](Cc1ccccc1)NC(=O)OCc1ccccc1 | IC50 | substrate cleavage | 0.104 µM
CCC(C)[C@H](NC(=O)C1CCCN1)C(=O)N[C@@H](Cc1ccccc1)[C@H](O)CN(CC(C)C)S(=O)(=O)c1ccc2c(c1)OCO2 | IC50 | - | 0.003 µM